This is an account of results in the supplement of paper PMC9931576.

To fix the notation:
B1: BD58-0403 (protein)
chain 1: EVQLVQSGAEVKKPGESLKISCKGSGYSFTSYWIGWVRQMPGKGLEWMGIIYPGGSETRYSPSFQGQVTISADTSISTAYLQWSSLKASDTAMYYCARPRSEIWFGETNGFDSWGQGTLVTVSS
chain 2: DIQMTQSPSSLSASVGDRVTITCRASQGISNSLAWYQQKPGKAPKLLLYTASRLESGVPSRFSGSGSGTDYTLTISSLQPEDFATYYCQQYYNTLETFGQGTRLEIK
B2: BD58-0404 (protein)
chain 1: EVHLVESGGGLVQPGGSLRLSCSASGFTFSSFAMHWVRQAPGKGLQYVSAISSNGGNTYYADSVKGRFTISRDNSKNTLYLQMSSLRAEDTAVYYCVKDLLWFGDHRWFDPWGQGTLVTVSS
chain 2: NFMLTQPHSVSESPGKTVTISCTRSSGSIASNYVQWYQQRPGSAPTTVIYEDNQRPSGVPDRFSGSIDSSSNSASLTISGLKTEDEADYYCQSYDITSWVFGGGTKLTVL
B3: BD58-0420 (protein)
chain 1: QVQLVESGGGVVQPGRSLRLSCAASGFTFSSYGMHWVRQAPGKGLEWVAVISYDGSNKYYVDSVKGRFTISRDNSKNTLYLQMNSLRAEDTAVYYCAKDISFYYGMDVWGQGTTVTVSS
chain 2: NFMLTQPHSVSESPGKTVTISCTGSSGSIASNYVQWYQQRPGSAPTTVIYEDNQRPSGVPDRFSGSIDSSSNSASLTISGLKTEDEADYYCQSYAGSNVVFGGGTKLTVL
B4: BD58-0402 (protein)
chain 1: QVQLVQSGAEVKKPGSSVKVSCKASGGTFSYYAISWVRQAPGQGLEWMGGIIPIFVTANYAQKFQGRVTITADESTSTAYMELSSLRSEDTAIYFCARQFDYGDSYFDYWGQGTLVTVSS
chain 2: EIVMTQSPATLSVSPGERATLSCRASQSVSSNLAWYQQKPGQAPRLLIYGASTRATGIPARFNGSGSGTEFTLTISSLQSEDFAVYYCQQYNSWPITFGQGTRLEIK
B5: BD56-275 (protein)
chain 1: QVQLVQSGAEVKKPGSSVKVSCKASGGTFSNYAINWVRQAPGQGLEWMGGIIPIFDRTNYAQKFQGRVAITAHESTSTAYLELSSLRSGDTAVYYCARAPLLEVLYMWGHFDSWGQGTLVTVSS
chain 2: DIVMTQSPDSLAVSLGERATINCKSSQSVLYSSNNKNYLAWYQQKPGQPPKLLIYWASTRESGVPDRFSGSGSGTDFTLAISSLQAEDVAVYYCQQYYNTPFTFGPGTKVDIK
B6: BD58-0431 (protein)
chain 1: EVQLVESGGGLVQPGGSLRLSCAASGFTFRSYWMSWVRQAPGKGLEWVANVKQDGSEKYYVDSVKGRFTISRDNAKNSLYLQMNSLRAEDTAVYYCARVPPPAADAFDIWGQGTMVTVSS
chain 2: SYVLTQPPSVSVAPGKTARITCGGNNIGSKSVHWYQQKPGQAPVLVIYYDSDRPSGIPERFSGSNSGNTATLTISRVEAGDEADYYCQVWDGGSDHVVFGGGTKLTVL
B7: BD-369 (protein)
chain 1: EVQLVESGGGLVQPGGSLRLSCAASGITVSSNYMTWVRQAPGKGLEWVSLIYSGGSTYYADSVKGRFTISRDNSKNTLHLQMNSLRGEDTAVYYCARDLVAFGMDVWGQGTTVTVSS
chain 2: IQLTQSPSSLSASVGDRVTITCRASQGISSYLAWYQQKPGKAPKLLIYAASTLQGGVPSRFSGSGSGTDFTLTISSLQSEDSATYYCQQLNSDTPTFGPGTKVEIK
B8: BD58-0412 (protein)
chain 1: EVQLVESGGGVVQPGGSLRLSCAASGFTFDDYAMHWVRQAPVKGLEWVSLISGDGGSTYYADSVKGRFTISRDNSKNSLYLQMNSLRTEDTALYYCAKDGYSDSSGYPNWFDPWGQGTLVTVSS
chain 2: EIVLTQSPGTLSLSPGERATLSCRASQSVSSSFLAWYQQKPGQAPRLLIYAASSRATGIPDKFSGSGSGTDFTLTISRLEPEDFAVYYCQQYGSSPYTFGQGTKLEIK
B9: BD58-0408 (protein)
chain 1: EVQLVESGGGLVQPGGSLRLSCAVSGFTVSNNYMSWVRQAPGKGLEWVSIIYSGGSTFYADSVKGRFTISRDNSKNTLYLQMNSLRAEDTAVYYCAREIVDQHWGQGTLVTVSS
chain 2: DIQMTQSPSSLSASVGDRVTITCQASQDINNYLNWYQQKAGKAPKLLIYDASNLKTGVPSRFSGSGSGTDFTLTISSLQPEDIATYYCQQYDNLPPWTFGQGTKLEIK
B10: BD56-207 (protein)
chain 1: QITLKESGPTLVKPTQTLTLTCTFSGFSLTTSKVGVAWIRQPPGKALEWLALIYWDDDKRYSPSLKSRLTIAADPSKNQVVLTMTNMDPVDTATYYCAHINLDGYAAFHNDFDYWGQGILVTVSS
chain 2: QSVLTQPPSVSEAPRQRVTISCSGSSSNIGHNAVNWYQQLPGKAPKLLIYYDYLLPSGVSDRFSGSRSGTSASLAISGLQSEDEADYYCASWDDRLNGPVFGGGTKLTVL

Human monoclonal antibodies against the spike receptor-binding domain (heavy:light variable regions). IC50 against pseudoviruses bearing the spike of naturally observed variants; lower = stronger; >10 µg/ml means not reached at the top dose. No active / inactive call. The stated detection limit is 0.0005 µg/ml; values near or below 0.001 µg/ml lie at the floor of the assay.

The first assay has as its target SARS-CoV-2 Omicron BA.1 spike pseudovirus. In words: pseudovirus neutralization IC50; higher = weaker neutralization. As to the method:
(§1)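 Single-round VSV luciferase pseudovirus mixed with antibody dilutions for 1 h and put on Huh-7 cells for about a day; IC50 from the dose curve.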
B1: the “pseudovirus neutralization IC50” value was 0.0213 µg/mL.
In the case of B2, the “pseudovirus neutralization IC50” value is more than 10 µg/mL.
Turning to B3, the “pseudovirus neutralization IC50” value was more than 10 µg/mL.
With B4, the “pseudovirus neutralization IC50” value was 0.0133 µg/mL.
As for B5, the “pseudovirus neutralization IC50” value turned out to be 0.162 µg/mL.
Regarding B6, the “pseudovirus neutralization IC50” value was more than 10 µg/mL.
Still for that read-out and setting: to B7 belongs 5.25 µg/mL; to B8, 0.00135 µg/mL; to B9, 0.182 µg/mL.
Same read-out and setting: with B10 the figure was more than 10 µg/mL.

A further assay deals with SARS-CoV-2 Omicron BA.2 spike pseudovirus. The assay is described as above. As to the method: as §1
For the molecule B1, the “pseudovirus neutralization IC50” value was determined as 0.00515 µg/mL.
With B2, the “pseudovirus neutralization IC50” value came out at 3.62 µg/mL.
On the same count and under the same terms, with B3 the figure was 4.76 µg/mL; with B4, 0.0041 µg/mL; with B5, 0.39 µg/mL.
Same read-out and setting: to B6 belongs 3.61 µg/mL.
The same measure, in the same setting: to B7 belongs 5.05 µg/mL.
As to B8, the “pseudovirus neutralization IC50” value was determined as 0.0007 µg/mL.
In the case of B9, the “pseudovirus neutralization IC50” value was found to be 0.00599 µg/mL.
B10: the “pseudovirus neutralization IC50” value is more than 10 µg/mL.

A further assay deals with SARS-CoV-2 Omicron BA.2.75 spike pseudovirus. Described as above. As to the method: as §1
For B1, the “pseudovirus neutralization IC50” value is 0.621 µg/mL.
Regarding B2, the “pseudovirus neutralization IC50” value came out at 5.45 µg/mL.
Same read-out and setting: to B3 belongs more than 10 µg/mL.
The same measure, in the same setting: with B4 the figure was 0.346 µg/mL; with B5, more than 10 µg/mL; with B6, 3.7 µg/mL.
Take B7: the “pseudovirus neutralization IC50” value was more than 10 µg/mL.
Take B8: the “pseudovirus neutralization IC50” value amounted to 0.354 µg/mL.
Still for that read-out and setting: with B9 the figure was more than 10 µg/mL; with B10, more than 10 µg/mL.

The next assay concerns the target SARS-CoV-2 Omicron BA.2.75.2 spike pseudovirus. The description is as above. Here is the method: as §1
As to B1, the “pseudovirus neutralization IC50” value was more than 10 µg/mL.
Turning to B2, the “pseudovirus neutralization IC50” value was determined as 1.83 µg/mL.
As for B3, the “pseudovirus neutralization IC50” value was more than 10 µg/mL.
Regarding B4, the “pseudovirus neutralization IC50” value amounted to 1.81 µg/mL.
Same read-out and setting: with B5 the figure was more than 10 µg/mL.
The same measure, in the same setting: to B6 belongs 3.33 µg/mL; to B8, more than 10 µg/mL.
Consider B9, for which the “pseudovirus neutralization IC50” value was more than 10 µg/mL.
Turning to B10, the “pseudovirus neutralization IC50” value was more than 10 µg/mL.

The next assay has as its target SARS-CoV-2 Omicron BA.5 spike pseudovirus. Described as above. As to the method: as §1
For the molecule B1, the “pseudovirus neutralization IC50” value was more than 10 µg/mL.
On the same count and under the same terms, with B2 the figure was 3.48 µg/mL.
For B3, the “pseudovirus neutralization IC50” value is more than 10 µg/mL.
On the same count and under the same terms, to B4 belongs more than 10 µg/mL.
As to B5, the “pseudovirus neutralization IC50” value was more than 10 µg/mL.
Consider B6, for which the “pseudovirus neutralization IC50” value was 4.9 µg/mL.
On to B7, for which the “pseudovirus neutralization IC50” value came to 8.34 µg/mL.
On the same count and under the same terms, with B8 the figure was 1.3 µg/mL.
As for B9, the “pseudovirus neutralization IC50” value was more than 10 µg/mL.
Still for that read-out and setting: with B10 the figure was more than 10 µg/mL.

A further assay addresses SARS-CoV-2 Omicron BM.1.1.1 spike pseudovirus. The assay is described as above. Here is the method:
as §1
For B1, the “pseudovirus neutralization IC50” value is more than 10 µg/mL.
Regarding B2, the “pseudovirus neutralization IC50” value was more than 10 µg/mL.
Still for that read-out and setting: to B3 belongs more than 10 µg/mL; to B4, more than 10 µg/mL; to B5, more than 10 µg/mL.
As to B6, the “pseudovirus neutralization IC50” value is more than 10 µg/mL.
The same measure, in the same setting: to B8 belongs more than 10 µg/mL; to B9, more than 10 µg/mL.
In the case of B10, the “pseudovirus neutralization IC50” value is more than 10 µg/mL.

In the next assay the target is SARS-CoV-2 Omicron BQ.1.1 spike pseudovirus. Described as above. As to the method: as §1
Turning to B1, the “pseudovirus neutralization IC50” value is more than 10 µg/mL.
On the same count and under the same terms, with B2 the figure was more than 10 µg/mL; with B3, more than 10 µg/mL; with B4, more than 10 µg/mL.
The same measure, in the same setting: to B5 belongs more than 10 µg/mL; to B6, more than 10 µg/mL.
Same read-out and setting: with B8 the figure was more than 10 µg/mL.
On to B9, for which the “pseudovirus neutralization IC50” value is more than 10 µg/mL.
For the molecule B10, the “pseudovirus neutralization IC50” value was more than 10 µg/mL.

Another assay addresses SARS-CoV-2 Omicron BR.2 spike pseudovirus. The description is as above. Here is the method:
as §1
For B1, the “pseudovirus neutralization IC50” value was more than 10 µg/mL.
For the molecule B2, the “pseudovirus neutralization IC50” value is more than 10 µg/mL.
For the molecule B3, the “pseudovirus neutralization IC50” value is more than 10 µg/mL.
Same read-out and setting: to B4 belongs more than 10 µg/mL; to B5, more than 10 µg/mL.
B6: the “pseudovirus neutralization IC50” value is more than 10 µg/mL.
On the same count and under the same terms, with B8 the figure was more than 10 µg/mL; with B9, more than 10 µg/mL; with B10, more than 10 µg/mL.

A further assay concerns the target SARS-CoV-2 Omicron CA.1 spike pseudovirus. The description is as above. As to the method: as §1
B1: the “pseudovirus neutralization IC50” value is more than 10 µg/mL.
B2: the “pseudovirus neutralization IC50” value was more than 10 µg/mL.
The same measure, in the same setting: to B3 belongs more than 10 µg/mL.
For B4, the “pseudovirus neutralization IC50” value is more than 10 µg/mL.
Regarding B5, the “pseudovirus neutralization IC50” value was more than 10 µg/mL.
Same read-out and setting: to B6 belongs more than 10 µg/mL; to B8, more than 10 µg/mL; to B9, more than 10 µg/mL.
Still for that read-out and setting: with B10 the figure was more than 10 µg/mL.

A further assay has as its target SARS-CoV-2 Omicron XBB spike pseudovirus. Described as above. As to the method: as §1
Consider B1, for which the “pseudovirus neutralization IC50” value was more than 10 µg/mL.
Turning to B2, the “pseudovirus neutralization IC50” value is more than 10 µg/mL.
On the same count and under the same terms, with B3 the figure was more than 10 µg/mL.
Same read-out and setting: with B4 the figure was more than 10 µg/mL.
B5: the “pseudovirus neutralization IC50” value is more than 10 µg/mL.
On to B6, for which the “pseudovirus neutralization IC50” value was more than 10 µg/mL.
The same measure, in the same setting: with B8 the figure was more than 10 µg/mL; with B9, more than 10 µg/mL; with B10, more than 10 µg/mL.

The next assay deals with SARS-CoV-2 early D614G spike pseudovirus. The assay is described as above. Here is the method: as §1
Consider B1, for which the “pseudovirus neutralization IC50” value is more than 10 µg/mL.
The same measure, in the same setting: with B2 the figure was more than 10 µg/mL; with B3, more than 10 µg/mL.
For the molecule B4, the “pseudovirus neutralization IC50” value is more than 10 µg/mL.
As for B5, the “pseudovirus neutralization IC50” value is more than 10 µg/mL.
Still for that read-out and setting: to B6 belongs more than 10 µg/mL; to B7, 0.013 µg/mL.
Same read-out and setting: with B8 the figure was more than 10 µg/mL.
Regarding B9, the “pseudovirus neutralization IC50” value was more than 10 µg/mL.
Same read-out and setting: with B10 the figure was more than 10 µg/mL.
